Results of unrelated studies side by side (data: NIAID ChemDB).

All rows: host cell toxicity; cells: MT-2; method: MTT; read-out: CC50

Conditions beyond the fields shown may differ between rows.

SMILES | result
CC[C@H](C)[C@H]1NC(=O)[C@@H](NC(=O)[C@@H](C)NC)[C@@H](C)OC(=O)[C@H](Cc2ccc(OC)cc2)N(C)C(=O)[C@@H]2CCCN2C(=O)[C@H](CC(C)C)NC(=O)[C@@H](C)C(=O)[C@H](C(C)C)OC(=O)C[C@@H]1O | >55.49 µM
O=C(/C=C/c1ccc(O)cc1)[Se]c1ccccc1 | 33.7 µM
CC[C@@H](C)[C@@H](N/C=C1\C(=O)C(O)C(C(C)C)=C2C=C(C)C(c3c(C)cc4c(C(C)C)c(O)c(O)c(C=N[C@H](C(=O)O)[C@@H](C)CC)c4c3O)=C(O)C21)C(=O)O.[Na+].[Na+] | 65.62 µM
O=C(/C=C/C=C/c1ccc(Br)cc1)[Se]c1ccccc1 | 29.5 µM
CC[C@H](C)[C@H]1NC(=O)[C@@H](NC(=O)[C@@H](CC(C)C)N(C)S(=O)(=O)c2ccc(C)cc2)[C@@H](C)OC(=O)[C@H](Cc2ccc(OC)cc2)N(C)C(=O)[C@@H]2CCCN2C(=O)[C@H](CC(C)C)NC(=O)[C@H](C(C)C)OC(=O)C[C@@H]1O | 1.14 µM
Cc1[nH]c2ccccc2c1CC(=O)N[C@@H](Cc1ccccc1)C(=O)N(C)c1ccccc1 | >100 µg/mL
Cc1cc2c(C(C)C)c(C)c(O)c(C=O)c2c(O)c1-c1c(C)cc2c(C(C)C)c(O)c(O)c(C=O)c2c1O | 16.27 µM
O=C(/C=C/c1ccc(O)c(O)c1)[Se]c1ccccc1 | 33.4 µM
CCCCCCCCCCCCCCCCCCOC[C@H](COP(=O)(O)C(=O)O)OC | 267 µM
CC[C@H](C)[C@H]1NC(=O)[C@@H](NC(=O)[C@@H](C)N(C)C(=O)[C@@H]2CCCN2C(=O)C(C)=O)[C@@H](C)OC(=O)[C@H](Cc2ccc(OC)cc2)N(C)C(=O)[C@@H]2CCCN2C(=O)[C@H](CC(C)C)NC(=O)[C@@H](C)C(=O)[C@H](C(C)C)OC(=O)C[C@@H]1O | >46.81 µM
C[C@H]1O[C@@H]2OCCC[C@@H]2[C@@H]1OC(=O)N[C@@H](Cc1ccccc1)[C@H](O)CN1C[C@H]2CCCC[C@H]2C[C@H]1C(=O)NC(C)(C)C | 27.8 µM
C[C@H]1CN2CCC[C@H]3CCCCC[C@@H]4C(=O)[C@@H](C)CN5CCC[C@@H](CCCCC[C@H](C1=O)[C@@H]32)[C@H]45 | 178.1 µM
CC(C)(C)NC(=O)[C@@H]1C[C@@H]2CCCC[C@@H]2CN1C[C@@H](O)[C@H](Cc1ccccc1)NC(=O)[C@H](CC(N)=O)NC(=O)c1ccc2ccccc2n1 | 25 µM
CCCCCCCCCCCCCCCCCCOC[C@H](COP(=O)(O)C(=O)O)OCCCC | 591 µM
CC[C@H](C)[C@H]1NC(=O)[C@@H](NC(=O)[C@@H](CC(C)C)N(C)C(=O)c2cc3ccccc3s2)[C@@H](C)OC(=O)[C@H](Cc2ccc(OC)cc2)N(C)C(=O)[C@@H]2CCCN2C(=O)[C@H](CC(C)C)NC(=O)[C@H](C(C)C)OC(=O)C[C@@H]1O | 0.17 µM
COC(=O)N[C@H](C(=O)N[C@@H](Cc1ccccc1)[C@@H](O)CN(Cc1ccc(-c2ccccn2)cc1)NC(=O)[C@@H](NC(=O)OC)C(C)(C)C)C(C)(C)C | 31.5 µg/mL
COC(=O)N[C@H](C(=O)N[C@@H](Cc1ccccc1)[C@@H](O)CN(Cc1ccc(-c2ccccn2)cc1)NC(=O)[C@@H](NC(=O)OC)C(C)(C)C)C(C)(C)C | 30.3 µM
O=C(/C=C/C=C/c1ccccc1)[Se]c1ccccc1 | 29.5 µM
COc1ccc(S(=O)(=O)N(CC(C)C)C[C@@H](O)[C@H](Cc2ccccc2)NC(=O)O[C@H]2CO[C@H]3O[C@@H]4OCC[C@@H]4[C@H]32)cc1 | 44.6 µM
COC(=O)N[C@H](C(=O)N[C@@H](Cc1ccccc1)[C@@H](O)CN(Cc1ccc(-c2ccccn2)cc1)NC(=O)[C@@H](NC(=O)OC)C(C)(C)C)C(C)(C)C | 27.6 µM
COc1c(O)ccc(C(=O)N[C@@H](CSc2ccccc2)[C@H](O)CN2C[C@H]3CCCC[C@H]3C[C@H]2C(=O)NC(C)(C)C)c1C | 13.3 µM
CCCCCCCCCCCCCCCCCCOCC(COP(=O)(O)C(=O)O)(OC)OC | 174 µM
O=C(/C=C/C=C/c1ccc([N+](=O)[O-])cc1)[Se]c1ccccc1 | 29.3 µM
CC(C)CN(C[C@@H](O)[C@H](Cc1ccccc1)NC(=O)O[C@H]1CCOC1)S(=O)(=O)c1ccc(N)cc1 | 45.5 µM
CC1=CC2=C(C(C)C)C(O)C(=O)/C(=C\NC(C)(C)C(=O)O)C2C(O)=C1c1c(C)cc2c(C(C)C)c(O)c(O)c(C=NC(C)(C)C(=O)O)c2c1O.[Na+].[Na+] | 77.35 µM
CC(C)CN(C[C@@H](O)[C@H](Cc1ccccc1)NC(=O)O[C@H]1CCOC1)S(=O)(=O)c1ccc(N)cc1 | 42.2 µM
Nc1nc(NC2CC2)c2ncn([C@H]3C=C[C@@H](CO)C3)c2n1 | >100 µM
CCCc1c([Se]c2ccccc2)n(COCC)c(=O)[nH]c1=O | >84 µM
CC(C)CN(C[C@@H](O)[C@H](Cc1ccccc1)NC(=O)O[C@H]1[C@H]2CCCO[C@H]2O[C@@H]1C)S(=O)(=O)c1ccc(N)cc1 | 40 µM
COC(=O)C(C)NP(=O)(OC[C@@H]1C=C[C@H](C2C=Nc3c2nc(N)[nH]c3=O)O1)Oc1ccccc1 | >100 µM
O=C(/C=C/c1ccccc1)[Se]c1ccccc1 | 33.2 µM
CC(C)(C)NC(=O)[C@@H]1C[C@@H]2CCCC[C@@H]2CN1C[C@H](O)[C@H](Cc1ccccc1)NC(=O)[C@H](CC(N)=O)NC(=O)c1ccc2ccccc2n1 | 19.1 µM
O=C1Nc2ccc(Cl)cc2[C@@](C#CC2CC2)(C(F)(F)F)O1 | >6.3 µM
Cc1cc2c(C(C)C)c(O)c(O)c(C=O)c2c(O)c1-c1c(C)cc2c(C(C)C)c(O)c(O)c(C=O)c2c1O | 16.27 µM
CCCCCCCCCCCCCCCCCCOC[C@@H](O)COP(=O)(O)C(=O)O | 1093 µM

A second listing of 3 rows from above:

| SMILES | result |
|---|---|
| COc1c(O)ccc(C(=O)N[C@@H](CSc2ccccc2)[C@H](O)CN2C[C@H]3CCCC[C@H]3C[C@H]2C(=O)NC(C)(C)C)c1C | 13.3 µM |
| Cc1cc2c(C(C)C)c(O)c(O)c(C=O)c2c(O)c1-c1c(C)cc2c(C(C)C)c(O)c(O)c(C=O)c2c1O | 16.27 µM |
| CC(C)CN(C[C@@H](O)[C@H](Cc1ccccc1)NC(=O)O[C@H]1CCOC1)S(=O)(=O)c1ccc(N)cc1 | 42.2 µM |

CCn: concentration that lowers growth or viability of the cells by n%.